Reference: patent US20230102223A1, “PHARMACEUTICAL COMPOSITIONS WITH ANTIFLAVIVIRAL ACTIVITY” (HEALTH RESEARCH, INC., priority 2016, published 2023)

Columns and labels:
[1] = system: ZIKV (Puerto Rico strain PRVABC59); assay: Viral titer reduction assay in A549 cells, ZIKV; format: cell-based, Zika virus
[2] = system: JEV; format: cell-based, Japanese encephalitis virus; details: CC50/EC50
[3] = system: YFV; format: cell-based, yellow fever virus; details: CC50/EC50
[4] = system: WNV; format: cell-based, West Nile virus
[5] = system: DENV2; details: Table 3, CC50/EC50

| Compound | TI ([1]; ZIKV*, in dark, CC50/EC50) | TI ([1]; ZIKV, CC50/EC50) | TI ([2]; JEV*, in dark) | TI ([3]; YFV*, in dark) | TI ([4]; WNV*, in dark, CC50/EC50) | TI [5] | TI [1] | TI [4] | TI ([2]; JEV) | TI ([3]; YFV) | TI ([4]; WNV, CC50/EC50) |
| --- | --- | --- | --- | --- | --- | --- | --- | --- | --- | --- | --- |
| 3-[10,15,20-tris(3-hydroxyphenyl)-2,3,22,24-tetrahydroporphyrin-5-yl]phenol [Temoporfin] | 1,850 | 1,696 | 3,700 | 6,783 | 4,070 | 2,035 |  |  |  |  |  |
| CN(C)c1ccc2nc3ccc(=[N+](C)C)cc-3sc2c1 [Methylene blue, [7-(dimethylamino)phenothiazin-3-ylidene]-dimethylazanium;chloride] |  |  |  |  |  |  | 6.8 | 19 |  |  |  |
| O=C(Nc1ccc([N+](=O)[O-])cc1Cl)c1cc(Cl)ccc1O [Niclosamide, 5-chloro-N-(2-chloro-4-nitrophenyl)-2-hydroxybenzamide] |  | 10 |  |  |  | 9 |  |  | 3.8 | 5.7 | 9 |

Where two headings read alike, the source gives them in different places.
